The text below walks through data of US20210254138A1, “SIALIC ACID TRANSPORTER PROTEINS AS BIOMARKERS AND DRUG TARGETS” (Quadram Institute Bioscience, priority 2018, published 2021).

The structures appear in SMILES notation.

In the data set the test system is RgSBP (RUMGNA_02698, solute binding protein). The data set can be described thus: Isothermal titration calorimetry (ITC) of RgSBP binding. The arrangement: species or system R. gnavus ATCC 29149. Here is the method:
Isothermal titration calorimetry (ITC) experiments were performed using the PEAQ-ITC system (Malvern, Malvern, UK) with a cell volume of 200 μl. Prior to titration, protein samples were exhaustively dialysed into 50 mM Tris-HCl pH 7.5. The ligand was dissolved in the dialysis buffer. The cell protein concentration was 100 μM and the syringe ligand concentration was 2 mM. Controls with titrant (sugar) injected into the buffer only were subtracted from the data. The analysis was performed using the Malvern software, using a single-binding site model. Experiments were carried out in triplicate.
(Isothermal titration calorimetry measures the heat released or taken up as one component is titrated into another.)

As for `CC(=O)N[C@H]1C2OC(C(=O)O)(C[C@@H]1O)O[C@@H]2[C@H](O)CO` (stereo partly drawn) [2,7-anhydro-Neu5Ac], the ΔG of binding was -7.99 ± 0.05 kcal/mol, the ΔH of binding is -0.93 ± 0.03 kcal/mol and the “−TΔS of binding” value is -7.05 ± 0.08 kcal/mol.
